Data published in the supplement of paper PMC3578754.
Fold change is the IC50 on the isolate divided by the IC50 on a reference virus; 1 = unchanged, higher = more resistant. Changes are given against the subtype B consensus. No active / inactive call. The values were gathered from many studies (numbered anew) with different assays, which the source does not name. Most viruses are clinical isolates; some are laboratory strains or clones with known resistance changes. Isolates with mixed residues are left out; stretches that were not sequenced show no change. Round top values that many isolates share are read here as limits; other very high values and 0.1 may be limits too.

Experiments:
Assay in all cases: fold change of IC50 against reference virus; higher = more resistant
stavudine = compound: Cc1cn([C@H]2C=C[C@@H](CO)O2)c(=O)[nH]c1=O [stavudine]
Method: (§1)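 Cell-culture drug susceptibility tests of virus bearing the reverse transcriptase of each isolate, gathered from many studies.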

delavirdine = compound: CC(C)Nc1cccnc1N1CCN(C(=O)c2cc3cc(NS(C)(=O)=O)ccc3[nH]2)CC1 [delavirdine]
Method: as §1

abacavir = compound: Nc1nc(NC2CC2)c2ncn([C@H]3C=C[C@@H](CO)C3)c2n1 [abacavir]
Method: as §1

zalcitabine = compound: Nc1ccn([C@H]2CC[C@@H](CO)O2)c(=O)n1 [zalcitabine]
Method: as §1

zidovudine = compound: Cc1cn([C@H]2C[C@H](N=[N+]=[N-])[C@@H](CO)O2)c(=O)[nH]c1=O [zidovudine]
Method: as §1

efavirenz = compound: O=C1Nc2ccc(Cl)cc2[C@@](C#CC2CC2)(C(F)(F)F)O1 [efavirenz]
Method: as §1

nevirapine = compound: Cc1ccnc2c1NC(=O)c1cccnc1N2C1CC1 [nevirapine]
Method: as §1

didanosine = compound: O=c1[nH]cnc2c1ncn2[C@H]1CC[C@@H](CO)O1 [didanosine]
Method: as §1

Row | Test System | fold change of IC50 against reference virus (stavudine) | fold change of IC50 against reference virus (delavirdine) | fold change of IC50 against reference virus (abacavir) | fold change of IC50 against reference virus (zalcitabine) | fold change of IC50 against reference virus (zidovudine) | fold change of IC50 against reference virus (efavirenz) | fold change of IC50 against reference virus (nevirapine) | fold change of IC50 against reference virus (didanosine)
1 | HIV-1 isolate 865 (reverse transcriptase changes: D67N T69D K101E K122E Y181C G190A I202V T215Y K219N A272P K277R Q278E T286A E297K G335D R356K M357R K366R A376V T386A A400T, study 54) | 1.7 | 19.7 | 1.9 | 1.1 | 7.3 | 101 | 893 | 1.8
2 | HIV-1 isolate 42 (reverse transcriptase changes: R83K R211S A272P K281R E297K S322L A376T V381I A400T, study 54) | 0.8 | 0.9 | 0.9 | 1 | 0.7 | 0.8 | 1.1 | 0.8
3 | HIV-1 isolate 1172 (reverse transcriptase changes: M41L E44D G45E V60I T69D K101R K102Q V118I P133L I135T N175Y M184V T200S K201M E203K H208Y L210W R211K T215Y K219R, study 40) | 7 | 1 | 25 | 19 | 103 | 1 | 4 | 7
4 | HIV-1 isolate 644 (reverse transcriptase changes: K70R K103R M184V R211K F214L, study 28) | 0.8 | 0.6 | 3.6 | 2.1 | 0.6 | 0.6 | 0.8 | 1.4
5 | HIV-1 isolate 1231 (reverse transcriptase changes: P4S V35I E40F M41L K43E D67E S68G K70T V75M K103N V118I K122V A158T K166R D177E T200A Q207E L210W R211K T215Y, study 40) | 24 | 77 | 9 | 4 | 79 | 23 | 159 | 7
6 | HIV-1 isolate 171 (reverse transcriptase changes: M41L D67N K70R K102Q S162C M184V T215Y K219Q K277R, study 110) | 1.4 | 0.4 | 3.4 | 1.8 | 4.8 | 0.3 | 0.3 | 1.4
7 | HIV-1 isolate 360 (reverse transcriptase changes: M41L D67N K70R V118I K122E I135T S162D D177E M184V T200E E203D F214L T215F K219Q V245K E297A, study 116) | 1.8 | 0.2 | 4.6 | 2.1 | 23 | 0.3 | 0.4 | 1.5
8 | HIV-1 isolate 81 (reverse transcriptase changes: K20R W24G L26W V35M M41L R83K K122E D123E M184V T200I T215Y, study 40) | 1 | 1 | 4 | 1 | 4 | 1 | 1 | 3
9 | HIV-1 isolate 667 (reverse transcriptase changes: K102Q D123E M184V T200A Q207E T215Y A272P K277R I293V, study 119) | 1.1 | 0.2 | 6.8 | 2.2 | 1 | 0.3 | 0.4 | 2.1
10 | HIV-1 isolate 999 (reverse transcriptase changes: K20R T39A M41L E44D D67N V118I K122E I135T D177E M184V H208Y L210W R211N T215Y K219N L283I R284K I293V E297K A304G, study 112) | 3.9 | 0.7 | 9.9 | 4 | 101 | 0.5 | 0.6 | 2.1
11 | HIV-1 isolate 1171 (reverse transcriptase changes: K20R M41L K101R K103N T128I I135V I142V N147H Y181C V189I R211T F214L T215Y, study 40) | 1 | 51 | 4 | 1 | 3 | 47 | 321 | 2
12 | HIV-1 isolate 659 (reverse transcriptase changes: S68N I135T M184V T200A Q207G T215D, study 28) | 0.7 | 0.6 | 2.7 | 1.6 | 0.7 | 0.5 | 1.1 | 1.3
13 | HIV-1 isolate 153 (reverse transcriptase changes: K64R K122P I135T I159V D177E I202V L210W R211K I293V Q334E R356K M357S S379G K390R, study 54) | 1.2 | 1 | 0.8 | 1.3 | 1.1 | 1.1 | 1 | 1.2
